Biological target: 6×His-tagged AVR-PikD (Magnaporthe oryzae, UniProt C4B8B8 22-113)
Settings: both partners purified

B1: MBP:Pikp-1_HMA (Pikp-1 HMA domain fused to the maltose-binding protein) (domain or fragment)
chain: GLKQKIVIKVAMEGNNCRSKAMALVASTGGVDSVALVGDLRDKIEVVGYGIDPIKLISALRKKVGDAELLQVSQANKD
  binding result: binds

From PMC8938504 (Nature Communications, 2022)
